# According to PubChem BioAssay AID504329 (Southern Research Specialized Biocontainment Screening …, 2011):
# This is one part of the list. Potency and affinity values are given separately. Active and inactive are the calls of the source. Cut-off read from the data, not from the text of the source: inconclusive = inhibition above about 27% without an active follow-up result; inactive = below that.
# Assay: NS1A inhibition, H1N1 influenza, cell based functional assay (AID 504329)
# Settings: percent inhibition, at 12.5 µM, hits give high values
row,Compound,inhibition
1,CCOC(=O)N1CCC(Nc2cccc(C)c2)CC1,inactive: -5.46%
2,COc1cc(C(=O)NCC2(N(C)C)CCCCC2)ccc1OC(F)F,inactive: 7.1%
3,CCOc1ccc(C)cc1CN(CCCl)CCCl,inactive: 8.07%
4,O=C1CCN(Cc2ccccc2)CC1,inactive: 3.92%
5,O=P1(N(CCCl)CCCl)SCCCS1,inactive: -0.44%
6,CCCCOc1ccc(C(=O)NCC2(N3CCOCC3)CCCCC2)cc1,inactive: 1.57%
7,O=C(NCC1(N2CCCCC2)CCCCC1)c1ccc(F)cc1,inactive: 0.95%
8,COc1ccc(NC2CCN(CCc3ccccc3)CC2)c(OC)c1,inactive: 27.4%
9,CCOC(=O)N1CCC(Nc2ccc(F)cc2)CC1,inactive: -4.96%
10,O=C(NCC1(N2CCOCC2)CCCCC1)c1cc2ccccc2o1,inactive: -15.6%
11,O=C(NCC1(N2CCCCC2)CCCCC1)c1ccc(Cl)nc1,inactive: -1.85%
12,Cc1cc(C)cc(N(C(=O)c2ccccc2)C2CCN(C(=O)OC(C)(C)C)CC2)c1,inactive: -2.36%
13,CCOC(=O)N1CCC(Nc2ccc(OC)cc2)CC1,inactive: -6.15%
14,N#CC1(Nc2ccccc2)CCN(Cc2ccccc2)CC1,inactive: -18.8%
15,O=C(NCC1(N2CCCCC2)CCCCC1)c1ccc(Cl)s1,inactive: -1.25%
16,O=C(OC1CN2CCC1CC2)C1c2ccccc2Oc2ccccc21 (centres undefined),inactive: -12.7%
17,COc1ccc(Cl)cc1C(=O)NCC1(N2CCOCC2)CCCCC1,inactive: -0.91%
18,O=C(NCC1(N2CCCCC2)CCCCC1)c1ccc(=O)[nH]c1,inactive: -1.6%
19,O=C(NCC1(N2CCCCC2)CCCCC1)c1cccs1,inactive: -1.1%
20,COc1ccc(C(=O)NCC2(N3CCCCC3)CCCCC2)cc1,inactive: 3.04%
21,CC(C)(C)OC(=O)N1CCC(N(C(=O)c2ccccc2)c2ccc(F)cc2)CC1,inactive: -1.73%
22,COc1ccc(C(=O)NCC2(N3CCCCC3)CCCCC2)c(OC)c1OC,inactive: -0.317%
23,CSc1ccccc1C(=O)NCC1(N2CCCCC2)CCCCC1,inactive: -2.28%
24,Cc1cccc(NC2(C#N)CCN(Cc3ccccc3)CC2)c1,inactive: -15.7%
25,CN1CCC(Nc2cccc(F)c2)CC1,inactive: 2.04%

row,Compound,inhibition
1,O=C(NCC1(N2CCCCC2)CCCCC1)c1cncc(Br)c1,inactive: 2.79%
2,CCCOc1ccc(C(=O)NCC2(N(C)C)CCCCC2)cc1OC,inactive: -13%
3,COc1ccc(CN(CCCl)CCCl)cc1Cl,inactive: 1.53%
4,CN(C)c1cccc(C(=O)NCC2(N3CCCCC3)CCCCC2)c1,inactive: 2.25%
5,CC(C)c1ccc(NC2CCN(C(=O)OC(C)(C)C)CC2)cc1,inactive: 8.62%
6,COc1cc(OC)c(C(=O)NCC2(N(C)C)CCCCC2)cc1OC,inactive: -6.07%
7,O=C(NCC1(N2CCOCC2)CCCCC1)c1cc(F)c(F)cc1Cl,inactive: -17%
8,O=C(NCC1(N2CCCCC2)CCCCC1)c1cccc(C(F)(F)F)c1,inactive: -3.48%
9,CN1CCN(CCOC(=O)C(O)(c2ccccc2)c2ccccc2)CC1,inactive: -0.58%
10,CC(C)c1ccc(C(=O)NCC2(N3CCOCC3)CCCCC2)cc1,inactive: -6.58%
11,COc1ccc(NC2CCN(C(=O)OC(C)(C)C)CC2)cc1,inactive: -6.32%
12,COc1cc(C(=O)NCC2(N3CCCCC3)CCCCC2)ccc1OC(F)F,inactive: 8.98%
13,O=C(NCC1(N2CCOCC2)CCCCC1)c1cc(=O)[nH]c2ccccc12,inactive: -5.54%
14,O=C(NCC1(N2CCCCC2)CCCCC1)c1ccc(OC(F)F)cc1,inactive: 10.1%
15,CSc1ccc(C(=O)NCC2(N3CCOCC3)CCCCC2)cc1,inactive: -0.9%
16,O=C(NCC1(N2CCCCC2)CCCCC1)c1cccc([N+](=O)[O-])c1,inactive: 1.03%
17,CCN1CCC(Nc2ccc(Cl)cc2)CC1,inactive: -4.08%
18,N#CC1(Nc2ccccc2)CCN(CCc2ccccc2)CC1,inactive: -2.09%
19,c1ccc(CN2CCC(Nc3ccccc3)CC2)cc1,inactive: -2.82%
20,Cc1cc(N(CCCl)CCCl)ccc1C=O,inactive: -21.8%
21,CCCN1CCC(Nc2cc(OC)cc(OC)c2)CC1,inactive: 1.23%
22,CN(C)C1(CNC(=O)c2cccc(C#N)c2)CCCCC1,inactive: -3.88%
23,CC(C)(C)OC(=O)N1CCC(N(C(=O)c2ccccc2)c2ccc(Cl)cc2)CC1,inactive: 13.9%
24,N#Cc1ccc(C(=O)NCC2(N3CCCCC3)CCCCC2)cc1,inactive: 1.61%
25,N/C(=N\O)c1c(N)no[n+]1[O-],inactive: -8.93%

row,Compound,inhibition
1,CCOC(=O)N1CCC(Nc2ccc(C)cc2)CC1,inactive: -3.37%
2,O=C(OC1CN2CCC1CC2)C1c2ccccc2C=Cc2ccccc21 (centres undefined),inactive: 1.86%
3,O=C(NCC1(N2CCOCC2)CCCCC1)c1cc(Br)ccc1Cl,inactive: -1.7%
4,COc1cc(C(=O)NCC2(N3CCOCC3)CCCCC2)cc(OC)c1C,inactive: -10.7%
5,COc1ccc(C(=O)NCC2(N3CCOCC3)CCCCC2)cc1OC,inactive: 2.13%
6,CCC(CO)(C(=O)OC1CN2CCC1CC2)c1ccccc1 (centres undefined),inactive: -23.1%
7,COc1cc(OC)cc(C(=O)NCC2(N3CCOCC3)CCCCC2)c1,inactive: -8.78%
8,COc1cccc(C(=O)N(c2cc(C)cc(C)c2)C2CCN(C(=O)OC(C)(C)C)CC2)c1,inactive: -1.43%
9,CN1CCC(Nc2ccc(Cl)cc2)CC1,inactive: -4.14%
10,CCOc1ncccc1C(=O)NCC1(N2CCOCC2)CCCCC1,inactive: -2.66%
11,CN1CCC(Nc2ccc(F)c(Cl)c2)CC1,inactive: 5.2%
12,CCCOc1ccc(C(=O)NCC2(N(C)C)CCCCC2)cc1,inactive: -20.6%
13,CC(C)(C)OC(=O)N1CCC(Nc2ccccc2)CC1,inactive: 4.23%
14,O=C(O)C1(Nc2ccccc2)CCN(Cc2ccccc2)CC1,inactive: -0.04%
15,Cc1ccccc1NC1(C#N)CCN(Cc2ccccc2)CC1,inactive: -19.2%
16,CCN1CCC(Nc2cccc(F)c2)CC1,inactive: -4.04%
17,O=C(NCC1(N2CCCCC2)CCCCC1)c1ccco1,inactive: -3.73%
18,CN(C)c1ccc(C(=O)NCC2(N3CCCCC3)CCCCC2)cc1,inactive: -0.11%
19,Cn1c(=O)[nH]cc(N(CCCl)CCCl)c1=O,inactive: -16.3%
20,COc1cc(OC)cc(C(=O)NCC2(N3CCCCC3)CCCCC2)c1,inactive: 8.61%
21,CC(=O)N(c1ccccc1)C1CCNCC1,inactive: 0.82%
22,Cc1ccc(NC2(C#N)CCN(Cc3ccccc3)CC2)cc1,inactive: 1.13%
23,Cc1ccc(C(=O)NCC2(N3CCCCC3)CCCCC2)o1,inactive: -7.48%
24,Fc1ccccc1NC1CCN(Cc2ccccc2)CC1,inactive: 1.02%
